Measurements reported in publication PMC6194325.
Construct, isoform or probe ends are uncertain for at least one entry.

Target: OmpR::His6 (phosphorylated by acetyl-phosphate) (UniProt A6TF28)
Test: EMSA
Details: 25 mM acetyl-phosphate, 10 mM Mg2+, complex at 1.3 uM OmpR, 10 ng DNA; recombinant protein; residues 1-239; protein details: His6 (pET30b); probe letters rebuilt from the primers and the genome

AGGGATCACCACTGCCAGAATATTGCGCTTCATCATTATTTATTACCCTCATTAATATTTTTTATATGAACACGTGCCACTGCCGTCAATAAGTTCTGTCAATAAAAACTTACAGAACCATTGATGAGAGTTTGGTGTCTGAAGGCATCTTTCCATCCGCGACAACGTTTCGCTAGCCGGAAAATGCTACGAATATCTCATATGAGTAACAAAACGAAAAATCATGTAACTAAATGTGTATTTAACGGAACTTTGTGAACTTAATCAAAATTCCGTTCCACCGGATAAGGGCAAACGCCATTACTTATCTATCTATATGAATTATTTATGATTAATTTGGCTAAGCGGCAATTCGTTCATTTTGTGTATTGAATTCGTATTCTTTTTATTCAGTCTCTATCTTTGCAAGATGTGCGGGTAAAGGTCAAAAAATGAGCAAATTTATCAGCGGTTTTGCTCAGTTATGAACATAAAGTGCGATCTACATCACCAGGATGCACCGAAACAGTGCGTAACATAATTGTGATTTCCGGGTCTTGATGTTTAAGGTTGTTGAATTTTACTAACAGTAATTGACATAAAAAAAGGCCAGCTTGCGCTGGCCTTTCAGATTGATGTC (double strand) [PompF]
binding result: binds
